Test results as given in ChEMBL document CHEMBL3751732 (Bioorg Med Chem Lett, 2016).

Chains of the proteins cited; added tags and fusions are not shown. Lines headed by an entry give the natural chain unless they say otherwise; changes in a name come on top.
UniProt Q9H3N8: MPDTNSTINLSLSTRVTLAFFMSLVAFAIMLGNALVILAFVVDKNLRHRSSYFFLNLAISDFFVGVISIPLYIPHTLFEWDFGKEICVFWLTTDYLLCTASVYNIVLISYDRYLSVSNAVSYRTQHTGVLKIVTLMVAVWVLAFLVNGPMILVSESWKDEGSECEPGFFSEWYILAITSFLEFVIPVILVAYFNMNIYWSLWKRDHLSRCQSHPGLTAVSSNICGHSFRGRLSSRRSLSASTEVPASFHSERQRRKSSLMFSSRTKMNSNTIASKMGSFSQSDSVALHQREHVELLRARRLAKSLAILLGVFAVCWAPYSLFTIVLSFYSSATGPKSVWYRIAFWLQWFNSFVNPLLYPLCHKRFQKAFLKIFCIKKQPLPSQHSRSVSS

Biological target: Histamine H4 receptor (Homo sapiens, UniProt Q9H3N8)
Test: Displacement of [3H]histamine from human histamine 4 receptor expressed in Sf9 cell membranes by liquid scintillation counting

Ki: 42.7 nM
Structure (SMILES): CN1CCN(c2nc(NCc3cccs3)c3cc(Cl)ccc3n2)CC1
